Data: US20240269228A1 (priority 2021, published 2024)

By UniProt entry, the sequences of proteins in these tests, tags left out. Residues count along the entry.
UniProt P21452, whole entry: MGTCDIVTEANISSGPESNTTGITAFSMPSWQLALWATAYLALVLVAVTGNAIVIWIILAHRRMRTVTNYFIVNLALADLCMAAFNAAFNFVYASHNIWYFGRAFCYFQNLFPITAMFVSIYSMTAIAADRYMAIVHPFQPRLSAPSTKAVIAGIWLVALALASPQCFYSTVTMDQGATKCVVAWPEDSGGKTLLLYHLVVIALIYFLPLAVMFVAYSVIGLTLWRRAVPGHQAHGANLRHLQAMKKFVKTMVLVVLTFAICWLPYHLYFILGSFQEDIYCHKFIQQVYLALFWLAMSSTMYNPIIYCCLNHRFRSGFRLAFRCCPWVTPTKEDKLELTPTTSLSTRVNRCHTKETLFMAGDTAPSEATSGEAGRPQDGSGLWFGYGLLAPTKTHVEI
UniProt P08172, whole entry: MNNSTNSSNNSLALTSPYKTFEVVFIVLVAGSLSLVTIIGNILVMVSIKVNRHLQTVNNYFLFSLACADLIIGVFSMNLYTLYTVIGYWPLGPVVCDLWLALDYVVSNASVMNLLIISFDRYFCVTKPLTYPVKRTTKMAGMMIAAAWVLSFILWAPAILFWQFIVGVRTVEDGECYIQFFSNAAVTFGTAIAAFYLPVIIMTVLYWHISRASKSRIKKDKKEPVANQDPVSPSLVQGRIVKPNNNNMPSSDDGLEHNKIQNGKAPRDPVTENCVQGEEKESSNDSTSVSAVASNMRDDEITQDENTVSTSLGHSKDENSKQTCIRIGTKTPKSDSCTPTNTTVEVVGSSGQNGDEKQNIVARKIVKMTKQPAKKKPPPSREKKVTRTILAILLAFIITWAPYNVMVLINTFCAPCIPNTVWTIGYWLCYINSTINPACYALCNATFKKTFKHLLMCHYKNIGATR
UniProt P32239, whole entry: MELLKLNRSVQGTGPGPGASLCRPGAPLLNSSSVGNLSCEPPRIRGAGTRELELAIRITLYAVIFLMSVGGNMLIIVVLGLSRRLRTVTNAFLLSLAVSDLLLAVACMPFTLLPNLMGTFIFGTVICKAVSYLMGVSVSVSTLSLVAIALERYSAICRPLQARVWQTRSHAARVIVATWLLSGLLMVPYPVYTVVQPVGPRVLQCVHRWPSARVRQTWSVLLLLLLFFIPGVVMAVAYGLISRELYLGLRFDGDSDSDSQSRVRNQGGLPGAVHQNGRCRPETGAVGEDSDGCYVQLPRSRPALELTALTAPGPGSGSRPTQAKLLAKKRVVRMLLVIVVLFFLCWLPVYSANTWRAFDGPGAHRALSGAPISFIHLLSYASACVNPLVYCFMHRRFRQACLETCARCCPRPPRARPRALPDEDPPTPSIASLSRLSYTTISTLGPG
UniProt P32241, 31-457 limits assumed: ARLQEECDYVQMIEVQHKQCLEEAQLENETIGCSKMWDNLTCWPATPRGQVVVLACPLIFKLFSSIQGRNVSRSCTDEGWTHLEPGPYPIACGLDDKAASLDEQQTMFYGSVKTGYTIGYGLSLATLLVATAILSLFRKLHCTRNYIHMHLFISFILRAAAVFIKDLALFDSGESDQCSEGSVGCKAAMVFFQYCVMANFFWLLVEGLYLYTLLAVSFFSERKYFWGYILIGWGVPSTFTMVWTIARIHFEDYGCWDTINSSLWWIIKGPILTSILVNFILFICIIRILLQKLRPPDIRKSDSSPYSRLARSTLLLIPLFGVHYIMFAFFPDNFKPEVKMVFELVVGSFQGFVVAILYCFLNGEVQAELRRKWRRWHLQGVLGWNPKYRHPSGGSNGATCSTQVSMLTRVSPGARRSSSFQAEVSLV
UniProt P23385, 19-1199 limits assumed: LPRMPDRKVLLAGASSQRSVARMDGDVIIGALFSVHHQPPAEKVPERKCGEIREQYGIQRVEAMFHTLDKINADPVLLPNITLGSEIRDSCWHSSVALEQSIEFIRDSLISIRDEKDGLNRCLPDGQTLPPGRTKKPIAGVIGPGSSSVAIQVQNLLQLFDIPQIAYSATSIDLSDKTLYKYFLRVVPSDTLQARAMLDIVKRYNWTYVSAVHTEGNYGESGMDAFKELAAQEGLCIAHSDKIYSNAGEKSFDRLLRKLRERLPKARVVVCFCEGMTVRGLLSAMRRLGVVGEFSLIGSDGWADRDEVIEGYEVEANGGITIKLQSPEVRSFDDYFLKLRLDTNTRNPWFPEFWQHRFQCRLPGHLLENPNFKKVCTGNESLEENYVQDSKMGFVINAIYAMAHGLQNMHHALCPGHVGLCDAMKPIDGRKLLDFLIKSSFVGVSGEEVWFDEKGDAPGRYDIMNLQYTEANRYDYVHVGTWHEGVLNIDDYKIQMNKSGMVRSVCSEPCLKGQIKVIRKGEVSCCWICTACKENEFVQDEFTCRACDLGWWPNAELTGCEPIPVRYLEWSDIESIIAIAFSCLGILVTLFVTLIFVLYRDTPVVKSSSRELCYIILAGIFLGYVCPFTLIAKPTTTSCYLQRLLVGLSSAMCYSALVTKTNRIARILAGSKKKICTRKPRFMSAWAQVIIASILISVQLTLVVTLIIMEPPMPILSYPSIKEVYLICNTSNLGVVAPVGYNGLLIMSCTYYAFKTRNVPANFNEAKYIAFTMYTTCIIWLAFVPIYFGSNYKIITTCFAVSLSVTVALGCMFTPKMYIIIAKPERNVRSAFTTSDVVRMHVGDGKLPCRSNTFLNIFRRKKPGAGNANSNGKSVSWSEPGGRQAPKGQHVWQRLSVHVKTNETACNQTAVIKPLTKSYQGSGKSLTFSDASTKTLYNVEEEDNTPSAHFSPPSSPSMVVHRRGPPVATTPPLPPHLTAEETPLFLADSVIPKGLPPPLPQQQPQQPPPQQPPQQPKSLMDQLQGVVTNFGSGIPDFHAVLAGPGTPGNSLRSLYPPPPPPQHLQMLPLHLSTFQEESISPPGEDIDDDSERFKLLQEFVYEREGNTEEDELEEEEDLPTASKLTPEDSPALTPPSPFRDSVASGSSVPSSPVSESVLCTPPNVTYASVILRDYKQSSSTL
UniProt P41594, 21-1212 limits assumed: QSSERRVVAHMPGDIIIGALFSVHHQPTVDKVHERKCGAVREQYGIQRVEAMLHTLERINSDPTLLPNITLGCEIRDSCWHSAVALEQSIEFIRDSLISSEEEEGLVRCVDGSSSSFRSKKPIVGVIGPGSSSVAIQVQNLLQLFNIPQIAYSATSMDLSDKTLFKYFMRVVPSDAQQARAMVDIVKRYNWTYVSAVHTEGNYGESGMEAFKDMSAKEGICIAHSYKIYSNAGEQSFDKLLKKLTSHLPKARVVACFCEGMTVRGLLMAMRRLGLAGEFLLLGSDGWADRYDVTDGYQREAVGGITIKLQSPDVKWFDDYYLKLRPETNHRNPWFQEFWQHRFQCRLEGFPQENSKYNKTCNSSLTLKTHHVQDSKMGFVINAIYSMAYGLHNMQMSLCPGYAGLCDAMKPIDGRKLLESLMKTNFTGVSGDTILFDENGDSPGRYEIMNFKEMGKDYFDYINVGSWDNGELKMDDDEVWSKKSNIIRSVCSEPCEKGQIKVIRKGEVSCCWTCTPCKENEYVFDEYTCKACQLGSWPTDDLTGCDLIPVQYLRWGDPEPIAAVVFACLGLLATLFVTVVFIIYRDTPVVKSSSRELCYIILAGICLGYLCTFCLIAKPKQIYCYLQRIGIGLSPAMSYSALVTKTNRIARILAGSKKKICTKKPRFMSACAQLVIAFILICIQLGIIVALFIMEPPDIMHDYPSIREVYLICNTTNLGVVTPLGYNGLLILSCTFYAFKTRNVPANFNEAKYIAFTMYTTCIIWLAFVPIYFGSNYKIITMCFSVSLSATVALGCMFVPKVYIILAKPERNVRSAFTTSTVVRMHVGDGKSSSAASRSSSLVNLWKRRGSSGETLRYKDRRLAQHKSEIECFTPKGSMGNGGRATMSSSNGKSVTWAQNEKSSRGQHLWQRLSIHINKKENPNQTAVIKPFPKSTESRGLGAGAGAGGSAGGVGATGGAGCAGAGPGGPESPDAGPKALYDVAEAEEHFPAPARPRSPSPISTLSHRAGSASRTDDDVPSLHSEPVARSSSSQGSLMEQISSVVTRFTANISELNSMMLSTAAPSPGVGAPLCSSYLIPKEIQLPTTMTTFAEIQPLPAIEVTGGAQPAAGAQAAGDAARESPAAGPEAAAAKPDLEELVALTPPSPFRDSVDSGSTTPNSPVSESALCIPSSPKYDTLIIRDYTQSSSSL
UniProt P0DMS8, whole entry: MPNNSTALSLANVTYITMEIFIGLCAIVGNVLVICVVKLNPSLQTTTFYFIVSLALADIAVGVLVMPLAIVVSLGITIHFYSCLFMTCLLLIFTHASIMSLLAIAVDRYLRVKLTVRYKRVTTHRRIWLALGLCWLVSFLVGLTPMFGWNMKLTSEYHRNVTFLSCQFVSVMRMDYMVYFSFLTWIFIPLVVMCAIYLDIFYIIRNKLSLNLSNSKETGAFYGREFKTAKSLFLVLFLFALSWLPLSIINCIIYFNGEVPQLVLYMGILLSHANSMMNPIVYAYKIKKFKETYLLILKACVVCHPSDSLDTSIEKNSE
UniProt P30559, whole entry: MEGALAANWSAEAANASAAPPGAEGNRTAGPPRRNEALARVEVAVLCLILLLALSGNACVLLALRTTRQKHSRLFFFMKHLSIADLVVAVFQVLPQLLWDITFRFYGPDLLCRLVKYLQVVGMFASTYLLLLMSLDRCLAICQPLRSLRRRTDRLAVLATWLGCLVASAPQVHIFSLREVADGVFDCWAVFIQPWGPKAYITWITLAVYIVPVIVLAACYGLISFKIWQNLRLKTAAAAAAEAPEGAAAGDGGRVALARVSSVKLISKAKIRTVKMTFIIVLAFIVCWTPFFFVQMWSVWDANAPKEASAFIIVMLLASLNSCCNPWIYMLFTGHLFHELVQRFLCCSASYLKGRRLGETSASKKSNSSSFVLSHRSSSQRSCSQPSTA
UniProt P25105, whole entry: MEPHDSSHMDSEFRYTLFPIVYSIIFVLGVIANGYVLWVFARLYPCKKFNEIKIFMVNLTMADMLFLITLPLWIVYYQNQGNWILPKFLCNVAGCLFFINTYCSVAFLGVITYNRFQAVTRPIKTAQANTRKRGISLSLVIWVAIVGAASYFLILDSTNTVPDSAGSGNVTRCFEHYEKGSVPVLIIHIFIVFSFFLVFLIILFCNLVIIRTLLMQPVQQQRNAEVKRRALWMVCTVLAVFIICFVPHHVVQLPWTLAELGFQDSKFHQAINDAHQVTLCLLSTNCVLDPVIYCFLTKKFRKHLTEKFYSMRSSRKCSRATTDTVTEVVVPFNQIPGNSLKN
UniProt P34981, whole entry: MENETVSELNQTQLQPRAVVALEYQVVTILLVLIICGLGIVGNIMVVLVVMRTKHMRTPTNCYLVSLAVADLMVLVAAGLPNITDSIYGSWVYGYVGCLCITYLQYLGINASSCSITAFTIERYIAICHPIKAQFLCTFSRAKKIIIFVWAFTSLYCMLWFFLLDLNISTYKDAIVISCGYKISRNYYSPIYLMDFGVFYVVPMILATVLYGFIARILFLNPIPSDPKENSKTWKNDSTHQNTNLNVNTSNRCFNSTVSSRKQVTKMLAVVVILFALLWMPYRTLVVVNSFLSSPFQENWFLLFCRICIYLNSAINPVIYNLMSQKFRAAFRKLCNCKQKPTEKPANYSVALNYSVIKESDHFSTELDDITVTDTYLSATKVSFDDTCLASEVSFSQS
UniProt P34972, whole entry: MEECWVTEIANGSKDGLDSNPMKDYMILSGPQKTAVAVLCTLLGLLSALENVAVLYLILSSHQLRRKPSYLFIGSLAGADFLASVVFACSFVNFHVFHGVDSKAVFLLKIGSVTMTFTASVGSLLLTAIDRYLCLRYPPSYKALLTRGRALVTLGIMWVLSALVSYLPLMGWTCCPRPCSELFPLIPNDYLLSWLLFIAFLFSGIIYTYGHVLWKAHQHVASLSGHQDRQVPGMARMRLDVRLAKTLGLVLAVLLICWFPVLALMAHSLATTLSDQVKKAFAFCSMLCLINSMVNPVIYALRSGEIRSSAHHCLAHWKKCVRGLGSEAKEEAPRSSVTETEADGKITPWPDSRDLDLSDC
UniProt P47870, 25-512 limits assumed: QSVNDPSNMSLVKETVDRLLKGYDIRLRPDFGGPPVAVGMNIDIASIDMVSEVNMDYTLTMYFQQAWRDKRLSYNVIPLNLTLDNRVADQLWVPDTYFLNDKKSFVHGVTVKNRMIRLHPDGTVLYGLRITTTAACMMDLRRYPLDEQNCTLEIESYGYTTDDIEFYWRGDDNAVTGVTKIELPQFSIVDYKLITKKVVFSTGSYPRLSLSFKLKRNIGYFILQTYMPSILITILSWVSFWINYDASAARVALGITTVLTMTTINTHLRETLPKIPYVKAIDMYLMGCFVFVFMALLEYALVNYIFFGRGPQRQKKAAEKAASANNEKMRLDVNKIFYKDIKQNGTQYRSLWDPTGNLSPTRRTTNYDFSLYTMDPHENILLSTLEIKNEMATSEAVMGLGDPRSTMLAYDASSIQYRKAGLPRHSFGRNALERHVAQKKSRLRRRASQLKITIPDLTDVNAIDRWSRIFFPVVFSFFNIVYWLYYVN

Experiments:
Assay in all cases: Radioligand binding assay (Eurofins Cerep)
Neurokinin NK2 = Neurokinin NK2 (Homo sapiens, UniProt P21452); settings: 10 μM; radioligand [^125I]NKA
Muscarinic M2 = Muscarinic M2 (Homo sapiens, UniProt P08172); settings: 10 μM; radioligand [^3H]AF-DX 384
Cholecystokinin CCK2 = Cholecystokinin CCK2 (Homo sapiens, UniProt P32239); settings: 10 μM; radioligand [^125I]CCK-8s
[1] = system: α1 adrenergic (non-selective); settings: 10 μM; radioligand [^3H]prazosin; rat
[2] = biological target: Vasoactive intestinal peptide 1 (VPAC1) (Homo sapiens, UniProt P32241); settings: 10 μM; radioligand [^125I]VIP
Adenosine A1 = Adenosine A1 (Homo sapiens, UniProt P30542); settings: 10 μM; radioligand [^3H]DPCPX
Adenosine A2B = Adenosine A2B (Homo sapiens, UniProt P29275); settings: 10 μM; radioligand [^3H]CPX
β1 adrenergic = β1 adrenergic (Homo sapiens, UniProt P08588); settings: 10 μM; radioligand [^3H](−)CGP12177
[3] = biological target: Metabotropic Glutamate receptor 1 (Rattus norvegicus, UniProt P23385); settings: 10 μM, radioligand [^3H] Quisqualate
[4] = biological target: Metabotropic Glutamate receptor 5 (Homo sapiens, UniProt P41594); settings: 10 μM; radioligand [^3H] Quisqualate
Adenosine A3 = Adenosine A3 (Homo sapiens, UniProt P0DMS8); settings: 10 μM; radioligand [^125I]AB-MECA
Muscarinic M3 = Muscarinic M3 (Homo sapiens, UniProt P20309); settings: 10 μM; radioligand [^3H]4-DAMP
Glucocorticoids receptor = Glucocorticoids receptor (Homo sapiens, UniProt P04150); settings: 10 μM; radioligand [^3H]dexamethasone
Endothelin ETA = Endothelin ETA (Homo sapiens, UniProt P25101); settings: 10 μM; radioligand [^125I]Endothelin-1
Muscarinic M1 = Muscarinic M1 (Homo sapiens, UniProt P11229); settings: 10 μM; radioligand [^3H] pirenzepine
[5] = biological target: γ-aminobutyric acid GABAB(1b) (Homo sapiens, UniProt Q9UBS5); settings: 10 μM; radioligand [^3H]CGP 54626
Oxytocin = Oxytocin (Homo sapiens, UniProt P30559); settings: 10 μM; radioligand [^3H]oxytocin
[6] = biological target: Platelet activating factor (Homo sapiens, UniProt P25105); settings: 10 μM; radioligand [^3H]C16-PAF
[7] = biological target: Leukotriene CysLT1 (LTD4) (Homo sapiens, UniProt Q9Y271); settings: 10 μM; radioligand [^3H LTD4
[8] = biological target: Thyrotropin-releasing hormone TRH1 (Homo sapiens, UniProt P34981); settings: 10 μM; radioligand [^3H]Me-TRH
Adenosine A2A = Adenosine A2A (Homo sapiens, UniProt P29274); settings: 10 μM; radioligand [^3H]CGS 21680
Cannabinoid CB2 = Cannabinoid CB2 (Homo sapiens, UniProt P34972); settings: 10 μM; radioligand [^3H]WIN 55212-2
Glutamate AMPA site = settings: 10 μM; radioligand [^3H]AMPA; rat
Nicotinic muscle-type = Nicotinic muscle-type (Homo sapiens, UniProt P02708+P07510+Q07001); settings: 10 μM; radioligand [^125I]α-bungarotoxin
[9] = biological target: γ-aminobutyric acid GABAA1 (h) (α1, β2, γ2) (Homo sapiens, UniProt P14867+P47870); settings: 10 μM; radioligand [^3H]muscimol
Dopamine D4.4 = Dopamine D4.4 (Homo sapiens, UniProt P21917); settings: 10 μM; radioligand [^3H] methyl-spiperone
Histamine H2 = Histamine H2 (Homo sapiens, UniProt P25021); settings: 10 μM; radioligand [^125I]APT
Glutamate NMDA site = settings: 10 μM; radioligand [^3H] CGP 39653; rat
[10] = system: Muscarinic (non-selective); settings: 10 μM; radioligand [^3H]QNB; rat

C[C@@H](O)[C@@H]1NC(=O)[C@H]2NC(=O)[C@@H](NC(=O)CN)CSSC[C@H](NC(=O)[C@H](CCCNC(=N)N)NC(=O)[C@@H]3CCCN3C(=O)[C@H](CC(=O)O)NC1=O)C(=O)N[C@@H](CCCNC(=N)N)C(=O)N[C@@H](Cc1ccc(O)c(I)c1)C(=O)N[C@@H](CCC(N)=O)C(=O)N[C@H](C(=O)N[C@H](CC(=O)N[C@@H](CCCNC(=N)N)C(=O)O)Cc1ccc(O)cc1)CSSC2(C)C
Inhibition [%] (Neurokinin NK2): 41.6% | Inhibition [%] (Muscarinic M2): 27.2% | Inhibition [%] (Cholecystokinin CCK2): 11.8% | Inhibition [%] [1]: 8.7% | Inhibition [%] [2]: 3.4% | Inhibition [%] (Adenosine A1): 0.2% | Inhibition [%] (Adenosine A2B): 4% | Inhibition [%] (β1 adrenergic): 19.5% | Inhibition [%] [3]: −4.0% | Inhibition [%] [4]: 7.7% | Inhibition [%] (Adenosine A3): 17% | Inhibition [%] (Muscarinic M3): −2.0% | Inhibition [%] (Glucocorticoids receptor): 0.6% | Inhibition [%] (Endothelin ETA): −17.9% | Inhibition [%] (Muscarinic M1): 7.6% | Inhibition [%] [5]: −6.4% | Inhibition [%] (Oxytocin): 13.1% | Inhibition [%] [6]: 9.1% | Inhibition [%] [7]: −3.2% | Inhibition [%] [8]: −8.7% | Inhibition [%] (Adenosine A2A): −15.7% | Inhibition [%] (Cannabinoid CB2): −8.3% | Inhibition [%] (Glutamate AMPA site): −4.5% | Inhibition [%] (Nicotinic muscle-type): −42.3% | Inhibition [%] [9]: 0.8% | Inhibition [%] (Dopamine D4.4): −4.8% | Inhibition [%] (Histamine H2): −6.7% | Inhibition [%] (Glutamate NMDA site): −0.1% | Inhibition [%] [10]: −0.4%

Some compounds may have been tested in ways that are not shown here.
